# Laboratory results published in EP1261587B1, “STILBENE DERIVATIVES, THEIR PREPARATION AND THEIR USE AS ANTIVIRAL AGENTS” (priority 1999, dated 2001).
# Sequences of proteins named here, by UniProt entry; tags and fusion partners are left off. A change or cut given only in a name is not applied to a line headed by its entry.
# UniProt P04608: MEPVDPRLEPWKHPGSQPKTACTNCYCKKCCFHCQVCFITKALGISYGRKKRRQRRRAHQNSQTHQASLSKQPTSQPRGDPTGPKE
# pIC50: −log10 of the molar value.
# Molecular target: T1, Tat-TAR complex (recombinant Tat, synthetic TAR duplex) (Human immunodeficiency virus type 1 group M subtype B, UniProt P04608)
# T1 construct: purchased Medical Research Council (MRC), Cambridge, U.K
# Assay: competition Tat-TAR gel-shift assay
# Type: binding, HIV-1
# Conditions: concentration giving 50 % decrease in intensity of the retarded band (Tat-TAR complex); 20 nM recombinant Tat; read-out: CD50 (the source's name)
# Description: The in vitro inhibition of the interaction between Tat and TAR can be shown by a competition Tat-TAR gel-shift assay. Through binding of the protein (recombinant Tat, Medical Research Council (MRC), Cambridge, U.K. - for the sequence of recombinant Tat see Churcher et al., J. Mol. Biol. 230, 90-110 (1993)) to the RNA (synthetic TAR duplex, Genset, Paris, France; for the sequence see Hamy et al., J. Mol. Biol. 230, 111-123 (1993)), the overall size and the charge/weight ratio of the formed duplex are changed, so that electrophoretic migration through a native polyacrylamide gel is affected. By radioactive labelling of the RNA and subsequent autoradiography, free RNA and complexes can be discriminated based on their relative positions in the gel (Hamy et al., J. Mol. Biol. 230, 111-123 (1993)). If the binding reaction with a test substance is able to prevent the protein binding to the radiolabelled RNA, this competition for binding can be visualized on the autoradiography as a decreased intensity of the retarded band. In more detail, compounds of the formula I are tested as follows: […]
substance,measurement,value
"N,N'-Bis(trans-4-{2-[4-(3-methyl-5-oxo-4-(o-carboxyphenylazo)-4,5-dihydro-1.H.-pyrazol-1-yl)-2-sulfo-phenyl]-vinyl}-2-sulfophenyl)-urea copper complex [Example 6]",pIC50,6.70
